What is called IC50 is the concentration needed to halve the response being measured. A higher IC50 goes with a need for much substance.

In this assay the target is drug-resistant HIV-1 PR (PR02-A) harboring L10I/G48S/I54V/V82F/L90M mutations (Human immunodeficiency virus type 1 group M subtype B, UniProt P12497, G536S/I542V/L498I/L578M/V570F). In words: biochemical. On the procedure:
In vitro transcription and cell-free protein synthesis were performed using WEPRO7240 wheat germ extract (CellFree Sciences, Yokohama, Japan). Transcription was performed using SP6 RNA polymerase, as described previously ([Matsunaga et al., 2014]). The translation reaction was performed in bilayer mode with slight modifications. Briefly, translation mixture (forming the bottom layer) consisted of 10 μl of each mRNA (usually 30–35 μg), 10 μl of WEPRO7240 (CellFree Sciences, Yokohama, Japan), and 0.8 μl of 1 μg/μl creatine kinase (Roche Diagnostics K. K., Tokyo, Japan) in 20.8 μl of SUB-AMIX® (CellFree Sciences, Yokohama, Japan). […] In actual drug susceptibility testing, quantitations of synthesized HIV-1 PR proteins were performed by densitometric scanning of Coomassie Brilliant Blue (CBB)-stained bands as compared with purified HIV-1 PR or bovine serum albumin (BSA) ([Madin et al., 2000]).
CFDSA was performed using cell-free–synthesized PR, substrate peptide, and the AlphaScreen® system (PerkinElmer, Boston, MA, USA). […] Luminescence signals were analyzed with the AlphaScreen detection program using the EnSpire software (PerkinElmer), and light intensities in the presence of the serially diluted inhibitors were used to calculate their IC50 values. PI-resistance levels were determined by comparing the IC50 values of drug-resistant PR with those of NL4-3 PR. […]

Take `Cc1cccc(C)c1OCC(=O)N[C@@H](Cc1ccccc1)[C@@H](O)C[C@H](Cc1ccccc1)NC(=O)[C@H](C(C)C)N1CCCNC1=O` [LPV, lopinavir]: 215 nM corresponded to half-maximal inhibition (IC50).

The values are drawn from publication PMC4628118 (Frontiers in Microbiology, 2015).
